Test results reported in patent publication US20260101892A1, “METHOD TO INHIBIT PROLIFERATION OF A PHYTOPATHOGEN ON PLANTS AND COMPOSITIONS USED FOR THIS PURPOSE” (CYSBIO APS, priority 2022, published 2026).

Tested on: downy mildew in grapevine (plasmopara viticola)
Experiment: Downy mildew in grapevine, controlled environment trial, foliar spray
Details: 1% zosteric acid formulation, foliar spray 200 L/ha, scored 17 days after application; standard 0.5 grams of copper; FIG. 1A

## O=C(O)/C=C/c1ccc(OS(=O)(=O)O)cc1 [zosteric acid]
  disease control of downy mildew compared with standard fungicide treatment: control the disease at levels similar to a standard fungicide treatment
